{
  "source": "paper PMC7128415",
  "about": "(Journal of Clinical Virology, 2004)",
  "key": {"SARS coronavirus [1]": {"tested_on": "SARS coronavirus", "format": "cell-based"}, "SARS coronavirus [2]": {"tested_on": "SARS coronavirus"}, "SARS-associated virus": {"tested_on": "SARS-associated virus", "settings": "cited from earlier work"}, "SARS coronavirus [3]": {"tested_on": "SARS coronavirus", "format": "cell-based", "remark": "listed apart in the source"}},
  "data": [
    {"molecule": "Interferon beta 1a: interferon-beta-1a (Rebif, Serono, Italy)", "values": [
      {"measurement": "CC50", "setting": "fRhK4 cell line", "value": ">10,000 IU ^a"},
      {"measurement": "EC50 (plaque reduction assay)", "setting": "SARS coronavirus [1]", "value": 8, "unit": "U/ml"},
      {"measurement": "EC50 at 72 h", "setting": "SARS coronavirus [2]", "value": "10,000 IU ^a"},
      {"measurement": "antiviral activity", "setting": "SARS coronavirus [2]", "value": "showed antiviral activity"},
      {"measurement": "inhibitory activities by neutralization tests", "setting": "SARS coronavirus [2]", "value": "detectable inhibitory activities"}
    ]},
    {"molecule": "interferon-beta: interferon-beta, subtype not specified at that place; in this study interferon-beta-1a was used (protein, UniProt P01574 22-187, looked up) Interferon beta: MSYNLLGFLQRSSNFQCQKLLWQLNGRLEYCLKDRMNFDIPEEIKQLQQFQKEDAALTIYEMLQNIFAIFRQDSSSTGWNETIVENLLANVYHQINHLKTVLEEKLEKEDFTRGKLMSSLHLKRYYGRILHYLKAKEYSHCAWTIVRVEILRNFYFINRLTGYLRN", "values": [
      {"measurement": "antiviral activity against SARS coronavirus", "setting": "SARS-associated virus", "value": "significant antiviral activity"},
      {"measurement": "activity in Vero-E6 cell line compared with fRhK-4", "setting": "SARS coronavirus [3]", "value": "more active"}
    ]}
  ]
}
